We go through five compounds from US20190275027A1 (priority 2018, published 2019).

The test system of one test is MARV. Description: MARV antiviral activity (Tables 1-3). In kind it is cell-based, Marburg virus. To be noted: read-out: MARV IC50.
The test system of test [1] is wild type Ebola virus, Mayinga strain.

Where “and” joins values, the source holds several entries; their conditions need not be identical. Equal values may be shown once. Read-outs that look alike come from different tables or passages of the source.

What is called IC50 is the concentration needed to halve the response being measured.

Turning to `COc1ccc2c(c1)CCN(C)[C@@H]2Cc1cccc(Oc2cc(C[C@@H]3c4cc(OC)c(OC)cc4CCN3C)ccc2OC)c1`, the half-maximal inhibitory concentration (IC50) in the test on MARV was determined as 0.282 µM; in test [1], 1.09 µM.
With `COc1ccc2c(c1)CCN(C)[C@@H]2Cc1ccc(Oc2ccc(C[C@@H]3c4cc(OC)c(OC)cc4CCN3C)cc2OC)cc1`, the IC50 in the test with MARV amounted to 0.083 µM; in test [1], 0.125 µM.
Taken in the same sequence, the figures for `COc1ccc2c(c1)CCN(C)[C@@H]2Cc1ccc(OC)c(Oc2ccc(C[C@@H]3c4cc(OC)c(OC)cc4CCN3C)cc2)c1` were 0.173 µM and 0.2 µM.
Taken in the same sequence, the figures for `COc1ccc2c(c1)CCN(C)[C@@H]2Cc1ccc(Oc2cc(C[C@@H]3c4ccc(OC)cc4CCN3C)ccc2OC)cc1` were 0.562 µM and 1.22 µM.
Consider `COc1ccc2c(c1)CCN(C)[C@@H]2Cc1ccc(Oc2cccc(C[C@@H]3c4cc5c(cc4CCN3C)OCO5)c2)cc1`, for which the half-inhibitory concentration (IC50) in the test on MARV was 0.53 µM; in the test with MARV (listed as B3-34^SS), 0.888 µM; in test [1], 0.887 µM and 0.992 µM.
